PubChem BioAssay AID1259414 – Drosophila RNAi Screening Center, 2018

Aim: 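Host factors increasing or decreasing Wolbachia levels in cultured fly cells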 (primary screen)
Cell system: Drosophila JW18 cells infected with Wolbachia
Reagents: long dsRNA against Drosophila genes, 0.25 µg dsRNA per well of a 384-well plate
Time to read-out: 5 days
Conditions: cells persistently infected with Wolbachia before knock-down; no added drug
Read-out: 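Automated imaging of bacterial rRNA staining divided by host cell count, reported as plate-normalised robust z-score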
Scale: Wolbachia per cell robust z: higher = more Wolbachia per host cell than the plate typical
Hit rule: 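Active if absolute robust z reaches 1.5 in two or more of three replicates, leaving out multi- or no-target dsRNAs, genes unexpressed in JW18 and A1 wells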
In all, the deposit lists about 24,000 reagents; below is a random part of those that have a named target and a result. Over the whole deposit, about 1,210 (5%) got an active call. 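Inactive calls also include excluded dsRNAs with several or no targets, genes unexpressed in JW18, and well A1, regardless of score.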

ppk8 (GeneID 318213) [DRSC17269]: Wolbachia per cell robust z, rep 1 = -0.632; Wolbachia per cell robust z, rep 2 = -4.47; Wolbachia per cell robust z, rep 3 = -0.081; Outcome = inactive
CG13000 (GeneID 32685) [DRSC19519]: Wolbachia per cell robust z, rep 1 = 0.548; Wolbachia per cell robust z, rep 2 = -0.215; Wolbachia per cell robust z, rep 3 = -0.81; Outcome = inactive
CG13000 (GeneID 32685) [DRSC25279]: Wolbachia per cell robust z, rep 1 = -0.648; Wolbachia per cell robust z, rep 2 = -0.329; Wolbachia per cell robust z, rep 3 = -0.75; Outcome = inactive
Mad (GeneID 33529) [DRSC00759]: Wolbachia per cell robust z, rep 1 = -5.1; Wolbachia per cell robust z, rep 2 = -0.418; Wolbachia per cell robust z, rep 3 = 0.791; Outcome = inactive
Mad (GeneID 33529) [DRSC40863]: Wolbachia per cell robust z, rep 1 = 0.892; Wolbachia per cell robust z, rep 2 = -0.672; Wolbachia per cell robust z, rep 3 = 0.0543; Outcome = inactive
CG7166 (GeneID 40401) [DRSC11809]: Wolbachia per cell robust z, rep 1 = 0.139; Wolbachia per cell robust z, rep 2 = -0.0736; Wolbachia per cell robust z, rep 3 = -7.71; Outcome = inactive
CG1647 (GeneID 43401) [DRSC15134]: Wolbachia per cell robust z, rep 1 = -1.11; Wolbachia per cell robust z, rep 2 = 0.202; Wolbachia per cell robust z, rep 3 = -2.1; Outcome = inactive
CG1537 (GeneID 32037) [DRSC19662]: Wolbachia per cell robust z, rep 1 = 1.08; Wolbachia per cell robust z, rep 2 = 0.0979; Wolbachia per cell robust z, rep 3 = -1.38; Outcome = inactive
CG7054 (GeneID 42643) [DRSC16185]: Wolbachia per cell robust z, rep 1 = -0.316; Wolbachia per cell robust z, rep 2 = -0.301; Wolbachia per cell robust z, rep 3 = 0.239; Outcome = inactive
CG7054 (GeneID 42643) [DRSC26659]: Wolbachia per cell robust z, rep 1 = 0.747; Wolbachia per cell robust z, rep 2 = 0.823; Wolbachia per cell robust z, rep 3 = -0.292; Outcome = inactive
Cib2 (GeneID 37363) [DRSC04535]: Wolbachia per cell robust z, rep 1 = -1.48; Wolbachia per cell robust z, rep 2 = 1.46; Wolbachia per cell robust z, rep 3 = 0.351; Outcome = inactive
CG4950 (GeneID 39783) [DRSC10463]: Wolbachia per cell robust z, rep 1 = 0.641; Wolbachia per cell robust z, rep 2 = 0.76; Wolbachia per cell robust z, rep 3 = 0.292; Outcome = inactive
Cyp6d5 (GeneID 41706) [DRSC16634]: Wolbachia per cell robust z, rep 1 = 1.6; Wolbachia per cell robust z, rep 2 = -0.335; Wolbachia per cell robust z, rep 3 = 0.376; Outcome = inactive
Cyp6d5 (GeneID 41706) [DRSC29717]: Wolbachia per cell robust z, rep 1 = -2.07; Wolbachia per cell robust z, rep 2 = 0.99; Wolbachia per cell robust z, rep 3 = 0.352; Outcome = inactive
Hmgs (GeneID 44154) [DRSC06866]: Wolbachia per cell robust z, rep 1 = 0.619; Wolbachia per cell robust z, rep 2 = 0.374; Wolbachia per cell robust z, rep 3 = 1.02; Outcome = inactive
Hmgs (GeneID 44154) [DRSC28746]: Wolbachia per cell robust z, rep 1 = -0.0379; Wolbachia per cell robust z, rep 2 = -1; Wolbachia per cell robust z, rep 3 = -2.43; Outcome = inactive
CG18508 (GeneID 59253) [DRSC18155]: Wolbachia per cell robust z, rep 1 = -0.558; Wolbachia per cell robust z, rep 2 = 0.275; Wolbachia per cell robust z, rep 3 = 0.681; Outcome = inactive
CG18508 (GeneID 59253) [DRSC25633]: Wolbachia per cell robust z, rep 1 = -0.838; Wolbachia per cell robust z, rep 2 = -8.32; Wolbachia per cell robust z, rep 3 = -3.62; Outcome = active
scaRNA:MeU5-C46 (GeneID 3772530) [DRSC36572]: Wolbachia per cell robust z, rep 1 = -3.55; Wolbachia per cell robust z, rep 2 = 0.669; Wolbachia per cell robust z, rep 3 = 1.74; Outcome = inactive
CG8366 (GeneID 36754) [DRSC07153]: Wolbachia per cell robust z, rep 1 = 0.164; Wolbachia per cell robust z, rep 2 = -0.00499; Wolbachia per cell robust z, rep 3 = -0.0738; Outcome = inactive
Men-b (GeneID 43936) [DRSC16736]: Wolbachia per cell robust z, rep 1 = 0.627; Wolbachia per cell robust z, rep 2 = -1.79; Wolbachia per cell robust z, rep 3 = 0.639; Outcome = inactive
CG13084 (GeneID 35229) [DRSC02188]: Wolbachia per cell robust z, rep 1 = 0.373; Wolbachia per cell robust z, rep 2 = 0.0101; Wolbachia per cell robust z, rep 3 = 1.69; Outcome = inactive
BomT1 (GeneID 12798334) [DRSC41439]: Wolbachia per cell robust z, rep 1 = -0.593; Wolbachia per cell robust z, rep 2 = 0.192; Wolbachia per cell robust z, rep 3 = -1.22; Outcome = inactive
Liprin-alpha (GeneID 249072) [DRSC02132]: Wolbachia per cell robust z, rep 1 = 0.0993; Wolbachia per cell robust z, rep 2 = 0.781; Wolbachia per cell robust z, rep 3 = -0.253; Outcome = inactive
Liprin-alpha (GeneID 249072) [DRSC26919]: Wolbachia per cell robust z, rep 1 = -2.04; Wolbachia per cell robust z, rep 2 = -1.26; Wolbachia per cell robust z, rep 3 = -1.46; Outcome = inactive
msb1l (GeneID 35254) [DRSC03572]: Wolbachia per cell robust z, rep 1 = -0.738; Wolbachia per cell robust z, rep 2 = -0.931; Wolbachia per cell robust z, rep 3 = -0.698; Outcome = inactive
msb1l (GeneID 35254) [DRSC26438]: Wolbachia per cell robust z, rep 1 = 0.0875; Wolbachia per cell robust z, rep 2 = 0.645; Wolbachia per cell robust z, rep 3 = 0.196; Outcome = inactive
Ugt36F1 (GeneID 35137) [DRSC02601]: Wolbachia per cell robust z, rep 1 = 0.421; Wolbachia per cell robust z, rep 2 = 1.01; Wolbachia per cell robust z, rep 3 = -0.124; Outcome = inactive
CG9003 (GeneID 36244) [DRSC07317]: Wolbachia per cell robust z, rep 1 = -0.0238; Wolbachia per cell robust z, rep 2 = -2.31; Wolbachia per cell robust z, rep 3 = -1.65; Outcome = active
Fbxl4 (GeneID 32378) [DRSC19805]: Wolbachia per cell robust z, rep 1 = 0.285; Wolbachia per cell robust z, rep 2 = -4.87; Wolbachia per cell robust z, rep 3 = 0.768; Outcome = inactive

Only “Wolbachia per cell robust z, rep 1” (2 entries from above):
Hmgs (GeneID 44154) [DRSC06866] = 0.619
Hmgs (GeneID 44154) [DRSC28746] = -0.0379
